One compound from PMC5934680, “A new class of antibacterials, the imidazopyrazinones, reveal structural transitions involved in DNA gyrase poisoning and mechanisms of resistance” (Nucleic Acids Research, 2018) can be followed below.

Assay type in all cases: biochemical
Assay [1] has as its target E. coli DNA gyrase GyrA mutant EcS83L (Escherichia coli, UniProt P0AES4+P0AES6, S83L). In words: Supercoiling inhibition assay, GyrA EcS83L mutant gyrase. How it is done: (§1) Supercoiling reactions were carried out as described previously ([24]) with minor adjustments. A total of 500 ng of relaxed pBR322 plasmid was used as a substrate for each 30 μl reaction. The amount of DNA gyrase (A2B2) added was normalized by testing various dilutions of the stock (A2B2 containing 0.5 mg/ml of each subunit) without compound. The amount sufficient to supercoil 50% of the substrate was then used for the testing of compounds. See Supplementary Figure S1 for details. This ensured a limiting amount of enzyme for every mutant tested. The individual gyrase subunits were either prepared in the lab as described previously ([25]) or purchased from Inspiralis.
(§2) The activity of tricyclic and bicyclic IPYs (Figure 1) was tested in a supercoiling inhibition assay (Table 1) on wild-type (wt) E. coli DNA gyrase and GyrA mutants EcS83L (SaS84), EcD87A (SaE88) and EcD82N (SaD83). These residues are located in the ‘Quinolone-Resistance-Determining-Region’, frequently found mutated in resistant clinical isolates ([18],[35–38]). Based on the structures solved of FQs bound to DNA gyrase and topo IV, it has been established that both residues EcS83 and EcD87 are involved in a water–metal–ion bridge that is important for the stabilization of the ternary complex, explaining the resistance to FQs observed when these residues are mutated ([15–16],[23],[29],[39]).

The target in assay [2] is E. coli DNA gyrase GyrA mutant EcD82N (Escherichia coli, UniProt P0AES4+P0AES6, D82N). Nature of the assay: Supercoiling inhibition assay, GyrA EcD82N mutant gyrase. How it is done: as §1, §2
Assay [3] addresses E. coli DNA gyrase GyrA mutant EcD87A (Escherichia coli, UniProt P0AES4+P0AES6, D87A). Nature of the assay: Supercoiling inhibition assay, GyrA EcD87A mutant gyrase. How it is done: as §1, §2

In the case of `O=c1c2nccn2c2cc(F)c(-c3ccncc3)cc2n1C1CC1` [t3], the half-inhibitory concentration (IC50) is 12 µM in assay [1], 4 to 20 µM in assay [2] and 1.6 µM in assay [3]. Moreover, the “Resistance of EcS83L mutant enzyme in supercoiling inhibition” value in assay [1] (EcS83L compared to wt) is listed as “partial resistance”. Further, the “Resistance of EcD82N mutant enzyme in supercoiling inhibition” value in assay [2] (EcD82N compared to wt) was “high resistance”. For the same compound, in assay [3] (EcD87A compared to wt), the “Resistance of EcD87A mutant enzyme in supercoiling inhibition” value is “low to no resistance”.

Usually IC50 stands for the concentration at which inhibition is half-maximal. Read a low IC50 as greater potency.
